Assay results taken from publication PMC12526154, “Bioactive Compounds Discovery from French Guiana Plant Extracts Through Antitubercular Screening and Molecular Networking” (Plants, 2025).

Experiments:
HepG2 cells = assay: Resazurin reduction cytotoxicity assay, HepG2
[1] = test system: IMR90 (embryonic lung fibroblasts); assay: Resazurin reduction cytotoxicity assay, IMR90
[2] = test system: BEAS-2B (bronchial epithelial cells)

Row | Structure (SMILES) | TI (therapeutic index) (HepG2 cells) | TI (therapeutic index) [1] | TI (therapeutic index) [2]
1 | C=Cc1c(C)c2cc3nc(c4c5[nH]c(cc6nc(cc1[nH]2)C(C)=C6CC)c(C)c5C(=O)[C@@H]4C(=O)OC)[C@@H](CCC(=O)O)[C@@H]3C [Pheophorbide A] | >4.9 | 0.68 | 0.29
2 | C/C1=C\CC(C)(C)/C=C/C(=O)/C(C)=C/CC1 [Zerumbone] | – | < 0.4 | < 0.74
3 | COc1c(O)cc2oc(-c3ccc(O)cc3)cc(=O)c2c1O [Hispidulin] | > 1.5 | > 0.9 and 0.9 | > 1.5
4 | COc1cc2oc(-c3ccc(O)c(O)c3)cc(=O)c2c(O)c1OC [Cirsiliol] | – | < 0.54 | –

Where “and” joins values, the source holds several entries; their conditions need not be identical. Equal entries are not always repeated. The index is printed as in the source, without its formula.
